For orientation: stoichiometry N means the number of molecules, sites or subunits per partner or assembly.

This assay deals with SARS-CoV-2 3CLpro E166A (SARS-CoV-2). Briefly: SEC.

In the case of SARS-CoV-2 3CLpro E166A (enzyme), the stoichiometry N worked out at 2.

These data come from article PMC9091064, “Key dimer interface residues impact the catalytic activity of 3CLpro, the main protease of SARS-CoV-2” (2022).
